A mixed list of measured activities; the numbers were collected in NIAID ChemDB.

All rows: tests in culture; agent: Candida albicans; endpoint: MIC

Lines come from different laboratories, so protocols vary. Blank or dashed fields: not listed here.

compound | strain | method | value
O=C(N[C@H](Cc1cn(Cc2ccccc2[N+](=O)[O-])nn1)C(=O)OCc1cn(Cc2ccccc2[N+](=O)[O-])nn1)OCc1ccccc1 | MTCC 183 |  | 8.9 µM
Cc1ccc2nc(Nc3nc(Nc4ccc(C#N)cc4)nc(Oc4cc(=O)n(C)c5ccccc45)n3)sc2c1 | MTCC 183 | agar | 500 µg/mL
Cc1ccc(C2(c3ccc(C)cc3)C(=O)N(C(c3ccccc3)c3ccccc3)C2c2cccs2)cc1 |  |  | 100 µg/mL
Oc1ccc(C=Nc2ccc(N3CCOCC3)cc2)cc1 | ATCC 2091 |  | 24 µg/mL
CCSc1c2ccccc2nc2cccc([N+](=O)[O-])c12 | CNCM 1180-79 |  | 500 µg/mL
O=C(NNC(=S)Nc1ccc(Cl)cc1Cl)c1cnccn1 | CNCM 1180-79 |  | >300 µg/mL
CC(N1CCN(c2ccc(-n3cnnn3)cc2)C1=O)[C@@](O)(Cn1cncn1)c1ccc(F)cc1F | TIMM1756 |  | >16 µg/mL
O=C(Nc1ccc(-c2nc3ccccc3[nH]2)cc1)c1ccccc1Cl | ATCC 10231 |  | 25 µg/mL
O=C(CSC(=S)N1CCCC1)N1N=C(c2cccs2)CC1c1ccc(O)cc1 | Clinical isolates |  | 125 µg/mL
CCSc1ccc([N+](=O)[O-])c2c(SCC)c3ccccc3nc12 | CNCM 1180-79 |  | 500 µg/mL
Cc1cccc(Cn2cc(COC(=O)[C@@H](Cc3cn(Cc4cccc(C)c4)nn3)NC(=O)OCC(C)(C)C)nn2)c1 | MTCC 183 |  | 20.2 µM
CCOc1ccc(N2C(=O)C(c3ccc(C)cc3)(c3ccc(C)cc3)C2c2cccs2)cc1 |  |  | 100 µg/mL
OC(Cn1cncn1)(Cn1nnnc1CCN1CCN(c2ccccc2Cl)CC1)c1ccc(F)cc1F |  |  | 4 µg/mL
CC[C@@H]1[C@@H](Cn2cncn2)[C@H](COc2ccc(OC(F)(F)F)cc2)CC[C@@]1(C)CCSc1nccn1C | CY3003 |  | 0.5 µg/mL
Cc1nnsc1C(=O)NNC(=S)Nc1ccc(F)cc1 | ATCC 90028 | agar | 400 µg/mL
COc1ccc2nc(Nc3nc(Nc4ccc(C#N)cc4)nc(Oc4cc(=O)n(C)c5ccccc45)n3)sc2c1 | MTCC 183 | agar | 100 µg/mL
Cc1c(O)cccc1C(=O)N[C@@H](CSc1ccccc1)[C@H](O)CN1C[C@H]2CCCC[C@H]2C[C@H]1C(=O)NC(C)(C)C | I83A |  | 64 µg/mL
C[C@@H](N1CCN(c2ccc(-n3cnnn3)cc2)C1=O)[C@](O)(Cn1cncn1)c1ccc(F)cc1F | CA383 |  | >16 µg/mL
O=C(O[C@@H]1COC(=O)c2cc(O)c(O)c(O)c2-c2c(cc(O)c(O)c2O)C(=O)OC1C1OC(=O)c2cc(O)c(O)c(O)c2-c2c(O)c(O)c(O)c3c2C(=O)OC1[C@H]3O)c1cc(O)c(O)c(O)c1 | SC5314 | broth dilution | 580 µg/mL
COc1ccccc1N1CCN(CCc2nnn(C(C)C(O)(Cn3cncn3)c3ccc(F)cc3F)n2)CC1 |  |  | 8 µg/mL
O=C(CSC(=S)N1CCCC1)N1N=C(c2cccs2)CC1c1ccccc1 | Clinical isolates |  | 250 µg/mL
C[C@H](n1nnc(CCN2CCN(c3ccccc3Cl)CC2)n1)[C@](O)(Cn1cncn1)c1ccc(F)cc1F |  |  | 4 µg/mL
Cn1c(=O)cc(Oc2nc(Nc3ccc(C#N)cc3)nc(Oc3cc(=O)n(C)c4ccccc34)n2)c2ccccc21 | MTCC 183 | agar | 250 µg/mL
Cc1ccccc1Cn1cc(COC(=O)[C@@H](Cc2cn(Cc3ccccc3C)nn2)NC(=O)OCC(C)(C)C)nn1 | MTCC 183 |  | 10.1 µM
CC(=O)N1CCN(c2ccc(OC[C@@H]3CO[C@](Cn4ccnc4)(c4ccc5c(c4)SCC(=O)N5C)O3)cc2)CC1 |  |  | 500 µg/mL
O=C(Nc1ccc(-c2nc3ccccc3[nH]2)cc1)c1cccc(Cl)c1 | ATCC 10231 |  | 25 µg/mL
Cc1ccccc1Cn1cc(COC(=O)[C@@H](Cc2cn(Cc3ccccc3C)nn2)NC(=O)OCc2ccccc2)nn1 | MTCC 183 |  | 9.8 µM
O=C(CSC(=S)N1CCCCC1)N1N=C(c2cccs2)CC1c1ccc(Cl)cc1 | Clinical isolates |  | 250 µg/mL
O=C(Nc1ccc(-c2nc3ccccc3[nH]2)cc1)c1cc([N+](=O)[O-])ccc1F | ATCC 10231 |  | 25 µg/mL
COc1ccc(C=Nc2ccc(N3CCOCC3)cc2)cc1OC | ATCC 2091 |  | 31 µg/mL
Cc1ccc(C2(c3ccc(C)cc3)C(=O)N(c3ccc(Cl)cc3)C2c2cccs2)cc1 |  |  | 100 µg/mL
O=C(CSC(=S)N1CCCC1)N1N=C(c2cccs2)CC1c1ccc(F)cc1 | Clinical isolates |  | 250 µg/mL
C=CCn1c(-c2ccc(N=Nc3c(C)[nH][nH]c3=O)cc2)n[nH]c1=S | ATCC 2091 |  | 62.5 µg/mL
CN(C)c1ccc(C2CC(c3cccs3)=NN2C(=O)CSC(=S)N2CCCC2)cc1 | Clinical isolates |  | 125 µg/mL
Brc1ccc(C=Nc2ccc(C3C=CC=CC=C3)cc2)cc1 | ATCC 24433 |  | >1000 µg/mL
CCCCCCCCOc1ccc(C(=O)NC2C[C@@H](O)[C@@H](O)NC(=O)C3[C@@H](O)[C@@H](C)CN3C(=O)C(C(C)O)NC(=O)C([C@H](O)[C@@H](O)c3ccc(O)cc3)NC(=O)C3C[C@@H](O)CN3C(=O)C(C(C)O)NC2=O)cc1 | CS |  | 0.25 µg/mL
CCn1c(-c2ccc(N=Nc3c(C)[nH][nH]c3=O)cc2)n[nH]c1=S | ATCC 2091 |  | 125 µg/mL
O=C(N[C@H](Cc1cn(CCc2ccccc2)nn1)C(=O)OCc1cn(CCc2ccccc2)nn1)OCc1ccccc1 | MTCC 183 |  | 9.8 µM
Cc1nnsc1C(=O)NNC(=S)Nc1ccc(Cl)cc1Cl | ATCC 90028 | agar | 200 µg/mL
COc1ccccc1N1CCN(CCc2nnn(CC(O)(Cn3cncn3)c3ccc(F)cc3F)n2)CC1 |  |  | 8 µg/mL
O=C(NNC(=S)Nc1ccc(Cl)cc1Cl)C1CCCCC1 | CNCM 1180-79 |  | >300 µg/mL
O=C(Nc1ccc(-c2nc3ccccc3[nH]2)cc1)c1ccc(Br)cc1 | ATCC 10231 |  | 50 µg/mL
COc1cc(-c2nnc(Sc3nc(Nc4ccc(C#N)cc4)nc(Oc4cc(=O)n(C)c5ccccc45)n3)o2)cc(OC)c1OC | MTCC 183 | agar | 50 µg/mL
CC(C)C1=C[C@H]2C[C@]3(C=O)[C@@H]4CC[C@@H](C)[C@H]4C[C@@]2(CO[C@H]2C[C@@H]4OC(C)(C)O[C@@H]4[C@@H](C)O2)[C@]13C(=O)O | 2005E |  | <0.001 µg/mL
CC1(C)C2CC3OB(C[C@@H](Cc4ccccc4)NC(=O)[C@@H](N)Cc4ccccc4)O[C@]3(C)C1C2 |  |  | ≤500 µg/mL
O=C(CSC(=S)N1CCCCC1)N1N=C(c2cccs2)CC1c1ccc(O)cc1 | Clinical isolates |  | 250 µg/mL
Cc1nnsc1C(=O)NNC(=S)Nc1ccc([N+](=O)[O-])cc1 | ATCC 90028 | agar | 200 µg/mL
C[C@H](n1nnc(CCN2CCN(c3ccc([N+](=O)[O-])cc3)CC2)n1)[C@](O)(Cn1cncn1)c1ccc(F)cc1F | V-01-191A-261 (resistant) |  | 4 µg/mL
Cn1c(=O)cc(Oc2nc(Nc3ccc(C#N)cc3)nc(Nc3cnccn3)n2)c2ccccc21 | MTCC 183 | agar | >500 µg/mL
CC(=CCC/C=C(\C)CCC=C(C)CCCN(C)C)CC/C=C(\C)CCC1OC1(C)C | ATCC 10231 |  | 30 µM
COc1ccc(N2C(=O)C(c3ccccc3)(c3ccccc3)C2c2cccs2)cc1 |  |  | 100 µg/mL
O=C(CSC(=S)N1CCCCC1)N1N=C(c2cccs2)CC1c1ccccc1 | Clinical isolates |  | 500 µg/mL
Cn1c(-c2cccc(N)c2)nc2ccccc21 | ATCC 10231 |  | 6.25 µg/mL
S=c1[nH]nc(C23CC4CC(CC(C4)C2)C3)n1-c1ccc(Cl)cc1Cl | CNCM 1180-79 |  | >300 µg/mL
O=C1N(c2ccc([N+](=O)[O-])cc2)C(c2cccs2)C1(c1ccccc1)c1ccccc1 |  |  | 100 µg/mL
C[C@H](n1nnnc1CCN1CCN(c2ccc(Cl)cc2)CC1)[C@](O)(Cn1cncn1)c1ccc(F)cc1F | V-01-191A-261 (resistant) |  | 2 µg/mL
Cn1c2ccccc2c(=O)c2c([N+](=O)[O-])ccc(CCN)c21 | CNCM 1180-79 |  | 50 µg/mL
OC(Cn1cncn1)(Cn1nnc(CCN2CCN(c3ccccc3Cl)CC2)n1)c1ccc(F)cc1F |  |  | 2 µg/mL
CN(C)CCCSc1c2ccccc2nc2cccc([N+](=O)[O-])c12 | CNCM 1180-79 |  | 500 µg/mL
Cc1[nH]n(-c2ccccc2)c(=O)c1N=Nc1ccc(-c2n[nH]c(=S)o2)cc1 | ATCC 2091 |  | 62.5 µg/mL
O=C(Nc1ccc(-c2nc3ccccc3[nH]2)cc1)c1cccc([N+](=O)[O-])c1 | ATCC 10231 |  | 12.5 µg/mL
COc1ccc(C=Nc2ccc(N3CCOCC3)cc2)cc1 | ATCC 2091 |  | 24 µg/mL
CCn1c(-c2ccc(N=Nc3c(C)[nH]n(CCO)c3=O)cc2)n[nH]c1=S | ATCC 2091 |  | 125 µg/mL

Again, the opening 4 rows:

compound | strain | method | value
O=C(N[C@H](Cc1cn(Cc2ccccc2[N+](=O)[O-])nn1)C(=O)OCc1cn(Cc2ccccc2[N+](=O)[O-])nn1)OCc1ccccc1 | MTCC 183 |  | 8.9 µM
Cc1ccc2nc(Nc3nc(Nc4ccc(C#N)cc4)nc(Oc4cc(=O)n(C)c5ccccc45)n3)sc2c1 | MTCC 183 | agar | 500 µg/mL
Cc1ccc(C2(c3ccc(C)cc3)C(=O)N(C(c3ccccc3)c3ccccc3)C2c2cccs2)cc1 |  |  | 100 µg/mL
Oc1ccc(C=Nc2ccc(N3CCOCC3)cc2)cc1 | ATCC 2091 |  | 24 µg/mL